Results reported in US20050089926A1, “Ligand sensing fluorescent acetylcholinesterase for detection of organophosphate activity” (priority 2002, published 2005).
Changes are numbered by the printed parent chain. Numbers in names are those of the source. Read-outs that look alike come from different tables or passages of the source.

B1: E84C (protein, UniProt P21836 32-614, looked up, variant E84C)
Acetylcholinesterase: EGREDPQLLVRVRGGQLRGIRLKAPGGPVSAFLGIPFAEPPVGSRRFMPPEPKRPWSGVLDATTFQNVCYQYVDTLYPGFEGTCMWNPNRELSEDCLYLNVWTPYPRPASPTPVLIWIYGGGFYSGAASLDVYDGRFLAQVEGAVLVSMNYRVGTFGFLALPGSREAPGNVGLLDQRLALQWVQENIAAFGGDPMSVTLFGESAGAASVGMHILSLPSRSLFHRAVLQSGTPNGPWATVSAGEARRRATLLARLVGCPPGGAGGNDTELIACLRTRPAQDLVDHEWHVLPQESIFRFSFVPVVDGDFLSDTPEALINTGDFQDLQVLVGVVKDEGSYFLVYGVPGFSKDNESLISRAQFLAGVRIGVPQASDLAAEAVVLHYTDWLHPEDPTHLRDAMSAVVGDHNVVCPVAQLAGRLAAQGARVYAYIFEHRASTLTWPLWMGVPHGYEIEFIFGLPLDPSLNYTTEERIFAQRLMKYWTNFARTGDPNDPRDSKSPQWPPYTTAAQQYVSLNLKPLEVRRGLRAQTCAFWNRFLPKLLSATDTLDEAERQWKAEFHRWSSYMVHWKNQFDHYSKQERCSDL
B2: H287C (protein, UniProt P21836 32-614, looked up, variant H287C)
Acetylcholinesterase: B1 Acetylcholinesterase with C84E, H287C
B3: A262C (protein, UniProt P21836 32-614, looked up, variant A262C)
Acetylcholinesterase: B1 Acetylcholinesterase with C84E, A262C

How the values were obtained:
[1] = tested on: mouse AChE mutants labeled with acrylodan; assay: Acrylodan fluorescence emission with saturating fasciculin
[2] = tested on: mouse AChE mutants labeled with acrylodan; details: acrylodan-labeled mutant; data from Boyd et al. 2000; cited from earlier work

Row | Molecule | Acrylodan Emission Maxima, Saturating Fasciculin ([1]; acrylodan-labeled mutant) | Chromic Shift ([1]; saturating fasciculin, acrylodan-labeled mutant) | Relative Quantum Yield ([1]; saturating fasciculin, areas of emission curves) | Acrylodan Emission Maxima, Saturating Fasciculin [2]
1 | B1 | 512 nm | 35 nm | 0.47 | 
2 | B2 |  |  |  | 507 nm
3 | B3 |  |  |  | 517 nm
